Experiment: Biodegradability OECD 301 A (92/69/EEC C4-A)
Description: In fact, based on data available with respect to the most similar compounds to the menadione derivatives disclosed herein, one would expect a degradability in the range of 0% (percentage calculated based on the initial mass expressed in mg/l) typical of menadione (2-methyl-1,4-naphthalenedione) and 17% (assessed after 28 days) typical of menadione sodium bisulphite (which calculation was performed in accordance with the guidelines OECD301 A attached to directive EEC 92/69/EEC C4-A).
Finally biodegradability was also evaluated according to standard 92/69/EEC C4-A. From the data, both MNB and MPB result to have a remarkably better biodegradability than 2-methyl-1,4-naphthalenedione and particularly than MSB.

SMILES | % biodegr. OECD 301 A (after 7 days) [%] | % biodegr. OECD 301 A (after 14 days) [%] | % biodegr. OECD 301 A (after 28 days) [%]
CC1(S(=O)(=O)O)CC(=O)c2ccccc2C1=O.Cc1cc(C)[nH]c(=O)n1 (stereo not drawn) [MPB, menadione dimethylpyrimidinole bisulphite] | 37 | 37 | 40
CC1=CC(=O)c2ccccc2C1=O [Menadione, 2-methyl-1,4-naphthalenedione, reference compound] | 0 | 0 | 0
CC1(S(=O)(=O)[O-])CC(=O)c2ccccc2C1=O.[Na+] (stereo not drawn) [MSB, menadione sodium bisulphite] | 5 | 10 | 17

Source: patent US20040232089A1, “Biocidal compounds for treating water” (VANETTA S.p.A., priority 2003, published 2004)
